Anti-infective test results gathered from many reports (values: NIAID ChemDB through PubChem).

Common to all: whole-cell or culture tests; agent: Plasmodium falciparum; measure: EC50

Rows are shuffled and stem from different studies.

{"structure": "O=C(CN1C(=O)SC(=Cc2cccc(F)c2)C1=O)N1CCN(c2ccccc2)CC1", "strain or isolate": "W2", "method": "fluorescence", "changes": "Chloroquine-resistant", "result": ">10 µM"}
{"structure": "c1ccc(Cc2ccccc2OCCCCn2cccc2)cc1", "strain or isolate": "3D7", "method": "flow cytometry", "cells": "Erythrocytes", "result": "8.151 µM"}
{"structure": "O=C(CC1NCCC[C@@H]1O)Cn1cnc(-c2ccccc2)cc1=O", "strain or isolate": "FCR3", "method": "LDH / absorbance", "cells": "Human A+ erythrocytes", "result": "0.0937 µg/mL"}
{"structure": "C[C@@H]1C[C@H](C)C[C@H](C)[C@@H](O)CC(=O)O[C@@H](C2CCC[C@H]2C(=O)O)C/C=C/C=C(/CN)[C@H](O)[C@@H](C)C1", "strain or isolate": "FCR3", "method": "LDH", "cells": "Erythrocyte", "result": "0.00088 µg/mL"}
{"structure": "CC(C)c1ccc(C2OOC(c3ccc(CO)cc3)OO2)cc1", "strain or isolate": "D6", "method": "LDH", "result": "2.2 µM"}
{"structure": "O=c1c2ccccc2ncn1CCCC1NCCCC[C@@H]1O", "strain or isolate": "FCR3", "method": "LDH / absorbance", "cells": "Human A+ erythrocytes", "result": "0.545 µg/mL"}
{"structure": "CC(NCc1ccc(OCc2ccccc2)cc1)C(O)c1ccccc1", "strain or isolate": "K1", "method": "flow cytometry", "cells": "Erythrocytes", "result": "0.6032 µM"}
{"structure": "C[C@@H]1CC[C@H]2[C@@H](C)C(=O)O[C@@H]3OC4(C)CC[C@@H]1[C@]32OO4", "strain or isolate": "Dd2 (CM1)", "method": "SYBR Green / fluorescence", "changes": "Multidrug-resistant", "result": "0.0209 µM"}
{"structure": "CCOC(=O)c1cn(Cc2ccc(F)cc2)c2ccc3nc(-c4ccc(F)cc4)c(-c4ccc(F)cc4)nc3c2c1=O", "strain or isolate": "W2", "method": "fluorescence", "result": "7.59 µM"}
{"structure": "COc1cc(OC)c(C=C2SC(=O)N(CC(=O)N3CCN(c4ccncc4)CC3)C2=O)c(OC)c1", "strain or isolate": "W2", "method": "fluorescence", "changes": "Chloroquine-resistant", "result": "1.6 µM"}
{"structure": "CN(O)C(=O)CCC(c1ccccc1)P(=O)(O)O", "strain or isolate": "K1", "method": "absorbance", "cells": "RBC", "result": "0.59 µM"}
{"structure": "COc1cc(OC)c(C=C2SC(=O)N(CC(=O)N3CCN(c4cccc(Cl)c4)CC3)C2=O)c(OC)c1", "strain or isolate": "W2", "method": "fluorescence", "changes": "Chloroquine-resistant", "result": "0.55 µM"}
{"structure": "CCCCN(CCCC)CC(O)COc1ccc2ccccc2c1", "strain or isolate": "3D7", "method": "flow cytometry", "cells": "Erythrocytes", "result": "3.49 µM"}
{"structure": "COc1cc(OC)c(C=C2SC(=O)N(C)C2=O)c(OC)c1", "strain or isolate": "W2", "method": "fluorescence", "changes": "Chloroquine-resistant", "result": ">10 µM"}
{"structure": "Cc1ccc(OCC(O)CN2CCc3ccccc3C2)c(C(C)(C)C)c1", "strain or isolate": "3D7", "method": "flow cytometry", "cells": "Erythrocytes", "result": "6.03 µM"}
{"structure": "CCOC(=O)c1cn(Cc2ccc(F)cc2)c2ccc3nc(-c4ccccc4)c(-c4ccccc4)nc3c2c1=O", "strain or isolate": "3D7", "method": "fluorescence", "result": "6.94 µM"}
{"structure": "COc1ccc(C=C2SC(=O)N(CC(=O)N3CCN(c4ccccc4)CC3)C2=O)cc1", "strain or isolate": "W2", "method": "fluorescence", "changes": "Chloroquine-resistant", "result": ">10 µM"}
{"structure": "O=c1c2ccccc2ncn1CC1(O)CC2NCCCC[C@@H]2O1", "strain or isolate": "K1", "method": "LDH / absorbance", "cells": "Human A+ erythrocytes", "result": "0.187 µg/mL"}
{"structure": "CC(NCC(O)COc1ccccc1C(C)(C)C)c1ccccc1", "strain or isolate": "K1", "method": "flow cytometry", "cells": "Erythrocytes", "result": "0.7109 µM"}
{"structure": "O=C(C[C@H]1NCCC[C@@H]1O)Cn1cnc2c(c1=O)CCC2", "strain or isolate": "K1", "method": "LDH / absorbance", "cells": "Human A+ erythrocytes", "result": "0.0911 µg/mL"}
{"structure": "CCN(CC)CCCC(C)Nc1ccnc2cc(Cl)ccc12", "strain or isolate": "W2", "method": "broth dilution / radiometric", "cells": "human red blood cells", "result": "0.528 µM"}
{"structure": "CCCCN(CCCC)CC(O)COc1cccc2ccccc12", "strain or isolate": "K1", "method": "flow cytometry", "cells": "Erythrocytes", "result": "0.1457 µM"}
{"structure": "C[C@@H]1CC[C@H]2[C@@H](C)C(=O)O[C@@H]3OC4(C)CC[C@@H]1[C@]32OO4", "strain or isolate": "W2", "method": "broth dilution / radiometric", "cells": "human red blood cells", "result": "0.0133 µM"}
{"structure": "O=C(CC1NCCC[C@@H]1O)Cn1cncc(-c2ccccc2)c1=O", "strain or isolate": "K1", "method": "LDH / absorbance", "cells": "Human A+ erythrocytes", "result": "0.0475 µg/mL"}
{"structure": "CCN(CC)CCCC(C)Nc1ccnc2cc(Cl)ccc12", "strain or isolate": "W2", "method": "LDH / absorbance", "result": "0.35 µg/mL"}
{"structure": "COc1ccc(Nc2cc(C)nc3c2ccc2ccccc23)cc1OC", "strain or isolate": "3D7", "method": "flow cytometry", "cells": "Erythrocytes", "result": "3.99 µM"}
{"structure": "CC(=O)C1C(=O)C=C(C)OC1=O.CCc1nc(N)nc(N)c1-c1ccc(Cl)cc1", "strain or isolate": "NF54", "method": "LDH", "result": "0.00071 µg/mL"}
{"structure": "O=c1c2ccccc2ncn1CCCC1NCC[C@@H]1O", "strain or isolate": "FCR3", "method": "LDH / absorbance", "cells": "Human A+ erythrocytes", "result": ">1 µg/mL"}
{"structure": "O=CN(O)CCCP(=O)(O)O", "strain or isolate": "K1", "method": "absorbance", "cells": "RBC", "result": "3.71 µM"}
{"structure": "O=C(CC1NCCC[C@@H]1O)Cn1cnc2c(c1=O)CCCCC2", "strain or isolate": "K1", "method": "LDH / absorbance", "cells": "Human A+ erythrocytes", "result": "0.0452 µg/mL"}
{"structure": "c1ccc2cc(OCCCCCN3CCCCC3)ccc2c1", "strain or isolate": "K1", "method": "flow cytometry", "cells": "Erythrocytes", "result": "2.41 µM"}

The last 4 rows once more:

| structure | strain or isolate | method | cells | changes | result |
|---|---|---|---|---|---|
| O=c1c2ccccc2ncn1CCCC1NCC[C@@H]1O | FCR3 | LDH / absorbance | Human A+ erythrocytes |  | >1 µg/mL |
| O=CN(O)CCCP(=O)(O)O | K1 | absorbance | RBC |  | 3.71 µM |
| O=C(CC1NCCC[C@@H]1O)Cn1cnc2c(c1=O)CCCCC2 | K1 | LDH / absorbance | Human A+ erythrocytes |  | 0.0452 µg/mL |
| c1ccc2cc(OCCCCCN3CCCCC3)ccc2c1 | K1 | flow cytometry | Erythrocytes |  | 2.41 µM |

ECn: concentration that inhibits the pathogen or its effect by n%. An empty or dashed field is not shown.